The list shows a part of the results, in another mix than the full data. Records with an inconclusive call do not appear. Active and inactive are the calls of the source. The call rests on the fitted dose curve; in most records, active means well fitted curve in the direction sought with a large enough effect; inconclusive means small, poorly fitted or top-dose-only effect, or another doubt; inactive means no such curve, though single readings can be large; an effect the other way counts as inactive or inconclusive.
Experiments:
[1] = qHTS Assay for Inhibitors of Fructose-1,6-bisphosphate Aldolase from Giardia Lamblia: Giardia lamblia growth inhibition (AID 2785); settings: Giardia lamblia trophozoite growth inhibition; at 57.5 µM (top of the series);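 further: trophozoites exposed to compound for 48 h at 37 °C; nearly all actives have a fitted effect of over 70% in size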
Excerpt: (§1) NIH Chemical Genomics Center [NCGC]
(§2) NIH Molecular Libraries Probe Production centers Network [MLPCN]
(§3) Assay Provider: Osnat Herzberg, University of Maryland
(§4) The objective of this project is to obtain compounds that inhibit Giardia lamblia growth. G. lamblia is a human pathogen which afflicts impoverished nations; it is the most common cause of outbreaks of diarrhea in the United States. During the course of our study of potential drug targets in Giardia, we have identified the Class II (Zn2+ functions in electrophilic catalysis) fructose-1,6-bisphosphate aldolase (FBPA) as an excellent candidate for drug targeting. FBPA is a key glycolytic pathway enzyme, essential for G. lamblia survival. […]
(§5) A glyceraldehyde-3-phosphate dehydrogenase/triose phosphate isomerase/NAD/arsenate coupled assay was adapted to the 1536-well HTP format for use in the primary screen. This was done by coupling it to a diaphorase/resazurin/resorufin reaction that can be monitored by fluorescence (excitation, 544 nm; emission, 590 nm). Compounds identified in this screen will be further evaluated by coupling the glycerol-3-phosphate/triose phosphate isomerase/NADH assay to a phenazine methosulfate/tetranitroblue tetrazolium color reaction. […]

By UniProt entry, the sequences of proteins in these tests, tags left out.
UniProt A8B2U2, whole entry: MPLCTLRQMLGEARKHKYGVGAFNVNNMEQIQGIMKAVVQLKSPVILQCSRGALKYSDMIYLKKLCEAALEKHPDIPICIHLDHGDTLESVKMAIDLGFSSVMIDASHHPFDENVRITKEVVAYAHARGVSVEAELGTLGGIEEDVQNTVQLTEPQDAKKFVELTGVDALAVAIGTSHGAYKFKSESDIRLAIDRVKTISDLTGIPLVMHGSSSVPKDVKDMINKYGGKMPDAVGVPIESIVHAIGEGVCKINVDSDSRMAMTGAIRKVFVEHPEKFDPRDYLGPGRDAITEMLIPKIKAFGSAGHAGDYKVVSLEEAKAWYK
UniProt P00883, whole entry: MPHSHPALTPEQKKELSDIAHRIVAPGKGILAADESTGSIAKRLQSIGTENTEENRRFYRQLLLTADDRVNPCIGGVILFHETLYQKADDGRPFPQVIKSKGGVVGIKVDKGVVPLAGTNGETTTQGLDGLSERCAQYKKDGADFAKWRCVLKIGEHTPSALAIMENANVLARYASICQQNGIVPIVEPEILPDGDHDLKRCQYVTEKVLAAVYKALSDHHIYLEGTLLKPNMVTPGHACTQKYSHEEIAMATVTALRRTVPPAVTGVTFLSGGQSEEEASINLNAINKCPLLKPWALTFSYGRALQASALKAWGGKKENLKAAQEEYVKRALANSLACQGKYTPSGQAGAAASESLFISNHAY

[2] = qHTS Assay for Inhibitors of Fructose-1,6-bisphosphate Aldolase from Giardia Lamblia: Mammalian cellular toxicity (AID 2786); settings: mammalian cell viability counter-screen; at 57.5 µM (top of the series);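 further: compound exposure lasted 48 h before reading; nearly all actives have a fitted effect of over 60% in size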
Excerpt: as §1, §2, §3, §4, §5

[3] = target: Fructose-bisphosphate aldolase (Giardia intestinalis (strain ATCC 50803 / WB clone C6)) (UniProt A8B2U2); assay: qHTS Assay for Inhibitors of Fructose-1,6-bisphosphate Aldolase from Giardia Lamblia: Primary screen confirmation (AID 2787); settings: purified Giardia aldolase enzyme activity; at 57.5 µM (top of the series);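 further: aldolase product measured through coupled diaphorase step turning resazurin into fluorescent resorufin; nearly all actives have a fitted effect of over 45% in size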
Excerpt: as §1, §2, §3, §4, §5
(§6) 6,Detector,525 nm/598 nm (Fluorescence),ViewLux Fluorescence Read (Read 1) […]

[4] = target: Fructose-bisphosphate aldolase A (Oryctolagus cuniculus) (UniProt P00883); assay: qHTS Assay for Inhibitors of Fructose-1,6-bisphosphate Aldolase from Giardia Lamblia: Rabbit FBPA Selectivity (AID 2794); settings: Rabbit muscle FBPA enzyme inhibition, selectivity counter-screen; at 57.5 µM (top of the series); further: nearly all actives have a fitted effect of over 60% in size
Procedure, shortened: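 Selectivity was assessed on rabbit Class I enzyme by qHTS. Product formation was detected by AmpLite Red fluorescence (525/598 nm) after a 20 min RT reaction started with substrate, following 10 min compound preincubation at up to 57.5 uM final.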

[5] = qHTS Assay for Inhibitors of Fructose-1,6-bisphosphate Aldolase from Giardia Lamblia: Coupling assay counterscreen confirmation (AID 2795); settings: GAPDH coupling enzyme counterscreen, biochemical; at 57.5 µM (top of the series); further: nearly all actives have a fitted effect of over 55% in size
Excerpt: as §1, §2, §3, §4, §5, §6
On the % scale 0 is the no-effect control and ±100 the full control effect.

CN1CCC(Nc2ccc(Cl)cc2)CC1
inactive: activity change, negative = inhibition [1] -5.92% | viability change, negative = toxicity [2] 2.07% | activity change, negative = inhibition [3] -8.38% | activity, negative = inhibition [4] 0.145% | activity change, negative = inhibition [5] 12.5%

CCCN1CCC(Nc2cc(OC)cc(OC)c2)CC1
inactive: activity change, negative = inhibition [1] -9.31% | activity change, negative = inhibition [3] -28.7% | activity, negative = inhibition [4] -14.1% | activity change, negative = inhibition [5] -21.9%

— PubChem BioAssay (NCATS)
